Assay results published in US9206463B2, “Method of testing a disinfectant or antibiotic using phenanthridium derivatives” (Montana State University, priority 2006, dated 2015).

Key:
Format in all cases: cell-based
[1] = tested on: 8 bacterial species; conditions: for staining of dead cells (dye uptake): dead cells from all species examined, data not shown
[2] = tested on: Serratia marcescens; conditions: after 5 minutes
[3] = tested on: Salmonella typhimurium; conditions: after 5 minutes

| SMILES | staining of dead cells (dye uptake) [1] | colour of live cells stained with SYTO9/EMA [2] | colour of live cells stained with SYTO9/EMA [3] | penetration of live cells (staining) ([1]; live cells, combined with SYTO9, 50 μM) |
| --- | --- | --- | --- | --- |
| CC[n+]1c(-c2ccccc2)c2cc(N=[N+]=[N-])ccc2c2ccc(N)cc21.[Br-] [EMA] | efficiently stained red | appeared green after 5 minutes | appeared green after 5 minutes |  |
| CC[N+](C)(CC)CCC[n+]1c(-c2ccccc2)c2cc(N=[N+]=[N-])ccc2c2ccc(N)cc21.[Cl-].[Cl-] [PMA] | efficiently stained red |  |  | did not penetrate live cells in any of the species examined |
